Patent US20240109955A1 (published 2024)

B1: MX1043 (bispecific antibody)
chain: EIVLTQSPGTLSLSPGETATLSCRASQSFSSDLAWYQQKPGQAPRLLIYGASSRATGIPDRFSGSGSGTDFTLTISRLEPADFAVYYCQQYGSSPPVTFGGGTKVEIKGGSSGQTVVTQEPSFSVSPGGTVTLTCGLSSGSVSTAYFPSWYQQTPGQAPRTLIYGTNTRSSGVPDRFSGSILGNKAALTITGAQADDESDYYCVLYMGRGIVVFGGGTKLTVLGGGGSGGSGSGGGGSASGSGQVQLVESGGGVVQPGRSLRLSCAASGFTLSSYGMHWVRQAPGKGLEWVAVISYDGSNKYYVDSVKGRFTISRDNSKNTLYLQMNSLRAEDTAVYYCRWAYWELLPDYYYGMDVWGQGTTVTVSSGGSSGEVQLVESGGGLIQPGGSLRLSCAASGVIVSYNYMNWVRQAPGKGLEWVSVIYSGGSTFYADSVRGRFTISRDNSKNTLYLQMNSLRAEDTAVYYCARDLGPAGAFDIWGLGTMVTVSSASGGSGDKTHTCPPCPAPELLGGPSVFLFPPKPKDTLMISRTPEVTCVVVDVSHEDPEVKFNWYVDGVEVHNAKTKPREEQYNSYVVSVLTVLHQDWLNGKEYKCKVSNKALPAPIEKTISKAKGQPREPQVYTLPPSRDELTKNQVSLTCLVKGFYPSDIAVEWESNGQPENNYKTTPPVLDSDGSFFKKLTVDKSRWQQGNVFSCSVLHEALHSHYTQKSLSLSPG
B2: MX1055 (other)
chain 1: EIVMTQSPAILSVSPGERATLSCRASQSVAINLAWYQQKPGQAPRLLIYAASSRATGIPGRFSGSGSETNFTLTISSLQSGDFAVYYCQQYITWPPSYTFGQGTKLEIKGGSSGDTVMTQSPLSLPVTPGEPASISCRSSQSLLNSNGYNYLDWYVQKPGQSPQLLIYLGSNRASGVPDRFSGSGSGTDFTLKISRVEAEDVGVYYCMQPLQTPLFTFGPGTKVEIKGGGGSGGSGSGGGGSASGSGQVTLRESGPALVKPTQTLTLTCTFSGFSLSTRGVCVSWIRQPPGKALEWLAFIDWDDDKYYNTSLKTRLTISKDTSKNQVVLTMTNVHPVDTATYYCARISSHHGSSWCTTFDYWGQGALVTVSAGGSSGEVQLVESGGALIQPGGSLRLSCAASGIIVSANYMSWVRQAPGKGLEWVSVIYSGGSTFYADSVKGRFTISRDNSKNTLYLEMNSLRAEDTAVYYCARDAPILGVSDWGQGTLVTVSSASGGSGDKTHTCPPCPAPELLGGPSVFLFPPKPKDTLMISRTPEVTCVVVDVSHEDPEVKFNWYVDGVEVHNAKTKPREEQYNSYVVSVLTVLHQDWLNGKEYKCKVSNKALPAPIEKTISKAKGQPREPQVYTLPPCRDELTKNQVSLWCLVKGFYPSDIAVEWESNGQPENNYKTTPPVLDSDGSFFKKLTVDKSRWQQGNVFSCSVLHEALHSHYTQKSLSLSPG
chain 2: DTVMTQSPLSLPVTPGEPASISCRSSQSLLNSNGYNYLDWYVQKPGQSPQLLIYLGSNRASGVPDRFSGSGSGTDFTLKISRVEAEDVGVYYCMQPLQTPLFTFGPGTKVEIKGGSSGQTVVTQEPSFSVSPGGTVTLTCGLSSGSVSTAYFPSWYQQTPGQAPRTLIYGTNTRSSGVPDRFSGSILGNKAALTITGAQADDESDYYCVLYMGRGIVVFGGGTKLTVLGGGGSGGSGSGGGGSASGSGQVQLVESGGGVVQPGRSLRLSCAASGFTLSSYGMHWVRQAPGKGLEWVAVISYDGSNKYYVDSVKGRFTISRDNSKNTLYLQMNSLRAEDTAVYYCRWAYWELLPDYYYGMDVWGQGTTVTVSSGGSSGQVTLRESGPALVKPTQTLTLTCTFSGFSLSTRGVCVSWIRQPPGKALEWLAFIDWDDDKYYNTSLKTRLTISKDTSKNQVVLTMTNVHPVDTATYYCARISSHHGSSWCTTFDYWGQGALVTVSAASGGSGDKTHTCPPCPAPELLGGPSVFLFPPKPKDTLMISRTPEVTCVVVDVSHEDPEVKFNWYVDGVEVHNAKTKPREEQYNSYVVSVLTVLHQDWLNGKEYKCKVSNKALPAPIEKTISKAKGQPREPQVCTLPPSRDELTKNQVSLSCAVKGFYPSDIAVEWESNGQPENNYKTTPPVLDSDGSFFLVSKLTVDKSRWQQGNVFSCSVLHEALHSHYTQKSLSLSPG
B3: MX1042 (bispecific antibody)
chain: DTVMTQSPLSLPVTPGEPASISCRSSQSLLNSNGYNYLDWYVQKPGQSPQLLIYLGSNRASGVPDRFSGSGSGTDFTLKISRVEAEDVGVYYCMQPLQTPLFTFGPGTKVEIKGGSSGEIVLTQSPGTLSLSPGETATLSCRASQSFSSDLAWYQQKPGQAPRLLIYGASSRATGIPDRFSGSGSGTDFTLTISRLEPADFAVYYCQQYGSSPPVTFGGGTKVEIKGGGGSGGSGSGGGGSASGSGEVQLVESGGGLIQPGGSLRLSCAASGVIVSYNYMNWVRQAPGKGLEWVSVIYSGGSTFYADSVRGRFTISRDNSKNTLYLQMNSLRAEDTAVYYCARDLGPAGAFDIWGLGTMVTVSSGGSSGQVTLRESGPALVKPTQTLTLTCTFSGFSLSTRGVCVSWIRQPPGKALEWLAFIDWDDDKYYNTSLKTRLTISKDTSKNQVVLTMTNVHPVDTATYYCARISSHHGSSWCTTFDYWGQGALVTVSAASGGSGDKTHTCPPCPAPELLGGPSVFLFPPKPKDTLMISRTPEVTCVVVDVSHEDPEVKFNWYVDGVEVHNAKTKPREEQYNSYVVSVLTVLHQDWLNGKEYKCKVSNKALPAPIEKTISKAKGQPREPQVYTLPPSRDELTKNQVSLTCLVKGFYPSDIAVEWESNGQPENNYKTTPPVLDSDGSFFKKLTVDKSRWQQGNVFSCSVLHEALHSHYTQKSLSLSPG
B4: E12 (antibody, V domains shown)
VH: EVQLVESGGGLIQPGGSLRLSCAASGVIVSYNYMNWVRQAPGKGLEWVSVIYSGGSTFYADSVRGRFTISRDNSKNTLYLQMNSLRAEDTAVYYCARDLGPAGAFDIWGLGTMVTVSS
VL: EIVLTQSPGTLSLSPGETATLSCRASQSFSSDLAWYQQKPGQAPRLLIYGASSRATGIPDRFSGSGSGTDFTLTISRLEPADFAVYYCQQYGSSPPVTFGGGTKVEIK
B5: MX1089 (other)
chain 1: QTVVTQEPSFSVSPGGTVTLTCGLSSGSVSTAYFPSWYQQTPGQAPRTLIYGTNTRSSGVPDRFSGSILGNKAALTITGAQADDESDYYCVLYMGRGIVVFGGGTKLTVLGGSSGEIVMTQSPAILSVSPGERATLSCRASQSVAINLAWYQQKPGQAPRLLIYAASSRATGIPGRFSGSGSETNFTLTISSLQSGDFAVYYCQQYITWPPSYTFGQGTKLEIKGGGGSGGSGSGGGGSASGSGEVQLVESGGALIQPGGSLRLSCAASGIIVSANYMSWVRQAPGKGLEWVSVIYSGGSTFYADSVKGRFTISRDNSKNTLYLEMNSLRAEDTAVYYCARDAPILGVSDWGQGTLVTVSSGGSSGQVQLVESGGGVVQPGRSLRLSCAASGFTLSSYGMHWVRQAPGKGLEWVAVISYDGSNKYYVDSVKGRFTISRDNSKNTLYLQMNSLRAEDTAVYYCRWAYWELLPDYYYGMDVWGQGTTVTVSSASGGSGDKTHTCPPCPAPELLGGPSVFLFPPKPKDTLMISRTPEVTCVVVDVSHEDPEVKFNWYVDGVEVHNAKTKPREEQYNSYVVSVLTVLHQDWLNGKEYKCKVSNKALPAPIEKTISKAKGQPREPQVYTLPPCRDELTKNQVSLWCLVKGFYPSDIAVEWESNGQPENNYKTTPPVLDSDGSFFKKLTVDKSRWQQGNVFSCSVLHEALHSHYTQKSLSLSPG
chain 2: DTVMTQSPLSLPVTPGEPASISCRSSQSLLNSNGYNYLDWYVQKPGQSPQLLIYLGSNRASGVPDRFSGSGSGTDFTLKISRVEAEDVGVYYCMQPLQTPLFTFGPGTKVEIKGGSSGEIVLTQSPGTLSLSPGERATLSCRASQSVSSSYLAWYQQKPGQAPRLLIYSASSRATGIPDRFSGSGSGTDFTLTISRLEPEDFAVYFCQQYVGLTGWTFGQGTKVEIKGGGGSGGSGSGGGGSASGSGQMQLVQSGPEVKKPGTSVKVSCKASGFTFTSSAVQWVRQRQRLEWIGWIVVGSGNTNYAQKFQERVTITRDMSTSTAYMELSSLRSEDTAVYYCAAPNCSNVVCYDGFDIWGQGTMVTVSSGGSSGQVTLRESGPALVKPTQTLTLTCTFSGFSLSTRGVCVSWIRQPPGKALEWLAFIDWDDDKYYNTSLKTRLTISKDTSKNQVVLTMTNVHPVDTATYYCARISSHHGSSWCTTFDYWGQGALVTVSAASGGSGDKTHTCPPCPAPELLGGPSVFLFPPKPKDTLMISRTPEVTCVVVDVSHEDPEVKFNWYVDGVEVHNAKTKPREEQYNSYVVSVLTVLHQDWLNGKEYKCKVSNKALPAPIEKTISKAKGQPREPQVCTLPPSRDELTKNQVSLSCAVKGFYPSDIAVEWESNGQPENNYKTTPPVLDSDGSFFLVSKLTVDKSRWQQGNVFSCSVLHEALHSHYTQKSLSLSPG
B6: MX1069 (other)
chain 1: QTVVTQEPSFSVSPGGTVTLTCGLSSGSVSTAYFPSWYQQTPGQAPRTLIYGTNTRSSGVPDRFSGSILGNKAALTITGAQADDESDYYCVLYMGRGIVVFGGGTKLTVLGGSSGEIVLTQSPGTLSLSPGETATLSCRASQSFSSDLAWYQQKPGQAPRLLIYGASSRATGIPDRFSGSGSGTDFTLTISRLEPADFAVYYCQQYGSSPPVTFGGGTKVEIKGGGGSGGSGSGGGGSASGSGEVQLVESGGGLIQPGGSLRLSCAASGVIVSYNYMNWVRQAPGKGLEWVSVIYSGGSTFYADSVRGRFTISRDNSKNTLYLQMNSLRAEDTAVYYCARDLGPAGAFDIWGLGTMVTVSSGGSSGQVQLVESGGGVVQPGRSLRLSCAASGFTLSSYGMHWVRQAPGKGLEWVAVISYDGSNKYYVDSVKGRFTISRDNSKNTLYLQMNSLRAEDTAVYYCRWAYWELLPDYYYGMDVWGQGTTVTVSSASGGSGDKTHTCPPCPAPELLGGPSVFLFPPKPKDTLMISRTPEVTCVVVDVSHEDPEVKFNWYVDGVEVHNAKTKPREEQYNSYVVSVLTVLHQDWLNGKEYKCKVSNKALPAPIEKTISKAKGQPREPQVYTLPPCRDELTKNQVSLWCLVKGFYPSDIAVEWESNGQPENNYKTTPPVLDSDGSFFKKLTVDKSRWQQGNVFSCSVLHEALHSHYTQKSLSLSPG
chain 2: EIVLTQSPGTLSLSPGETATLSCRASQSFSSDLAWYQQKPGQAPRLLIYGASSRATGIPDRFSGSGSGTDFTLTISRLEPADFAVYYCQQYGSSPPVTFGGGTKVEIKGGSSGDTVMTQSPLSLPVTPGEPASISCRSSQSLLNSNGYNYLDWYVQKPGQSPQLLIYLGSNRASGVPDRFSGSGSGTDFTLKISRVEAEDVGVYYCMQPLQTPLFTFGPGTKVEIKGGGGSGGSGSGGGGSASGSGQVTLRESGPALVKPTQTLTLTCTFSGFSLSTRGVCVSWIRQPPGKALEWLAFIDWDDDKYYNTSLKTRLTISKDTSKNQVVLTMTNVHPVDTATYYCARISSHHGSSWCTTFDYWGQGALVTVSAGGSSGEVQLVESGGGLIQPGGSLRLSCAASGVIVSYNYMNWVRQAPGKGLEWVSVIYSGGSTFYADSVRGRFTISRDNSKNTLYLQMNSLRAEDTAVYYCARDLGPAGAFDIWGLGTMVTVSSASGGSGDKTHTCPPCPAPELLGGPSVFLFPPKPKDTLMISRTPEVTCVVVDVSHEDPEVKFNWYVDGVEVHNAKTKPREEQYNSYVVSVLTVLHQDWLNGKEYKCKVSNKALPAPIEKTISKAKGQPREPQVCTLPPSRDELTKNQVSLSCAVKGFYPSDIAVEWESNGQPENNYKTTPPVLDSDGSFFLVSKLTVDKSRWQQGNVFSCSVLHEALHSHYTQKSLSLSPG

biological target: SARS-CoV-2 spike protein, Omicron sublineage BQ.1 (SARS-CoV-2, UniProt P0DTC2 14-1273); assay: cell-based or functional assay

Point of comparison: B1, “IC50, pseudovirus neutralization” value 2.64 nM. Against it:
- B2 — 6.1-fold higher, 16 nM
- B3 — 4.5-fold higher, 11.9 nM
- B4 — 4.5-fold higher, 11.9 nM
- B5 — within 1.5-fold, 2.92 nM
- B6 — 3.2-fold lower, 0.83 nM

Point of comparison: B5, “IC80, pseudovirus neutralization” value 7.27 nM. Against it:
- B1 — 2.1-fold higher, 15.1 nM
- B2 — 8.3-fold higher, 60.6 nM
- B3 — 3.8-fold higher, 27.4 nM
- B4 — 5.6-fold higher, 40.9 nM
- B6 — 2.4-fold lower, 3.07 nM
